Drawing on article PMC3974725, “A Random Sequential Mechanism of Aminoglycoside Acetylation by Mycobacterium tuberculosis Eis Protein” (PLoS ONE, 2014), this text covers Kd for 1 substance.

Amino acid sequences for entries named in this document (tags omitted). A change or cut given only in a name is not applied to a line headed by its entry.
UniProt P9WFK7: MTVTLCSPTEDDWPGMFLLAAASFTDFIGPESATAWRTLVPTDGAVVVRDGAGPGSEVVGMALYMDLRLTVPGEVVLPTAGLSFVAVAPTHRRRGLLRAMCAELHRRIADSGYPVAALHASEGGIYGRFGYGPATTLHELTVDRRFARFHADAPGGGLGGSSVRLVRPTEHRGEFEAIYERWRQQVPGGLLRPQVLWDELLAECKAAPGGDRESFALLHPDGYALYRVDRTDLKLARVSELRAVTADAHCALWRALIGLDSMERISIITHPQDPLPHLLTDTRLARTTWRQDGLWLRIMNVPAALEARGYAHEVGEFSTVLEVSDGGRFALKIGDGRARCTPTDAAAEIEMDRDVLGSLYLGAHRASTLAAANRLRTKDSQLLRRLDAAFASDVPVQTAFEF

Where two headings read alike, the source gives them in different places.

This test addresses MtEis (Mycobacterium tuberculosis, UniProt P9WFK7). The test is described as follows: Steady-state acetyltransferase assays (DTNB, absorbance at 412 nm), bisubstrate kinetic analysis. Format: biochemical.

Consider kanamycin A, for which the Kd worked out at 176 ± 144 µM (binding of AG to free enzyme, from thermodynamic cycle K d,AcCoA(E) K d,AG(AcCoA•E)/K d,AcCoA(AG•E), read-out: K d,AG(E)); 439 ± 52 µM (binding of AG to the AcCoA bound enzyme, simultaneous fit of KAN and NEO acetylation data, read-out: K d,AG(AcCoA•E)).
